Source: US10174127B2 (priority 2015, dated 2019)

Tested on: neuraminidase of H5N1 A/Hong Kong/156/1997 (reverse genetic reassortant)
Settings: read-out: Neuraminidase inhibition EC50, oseltamivir, geomean of two experiments

## oseltamivir carboxylate
  EC50: 380 nM
